Results of unrelated studies side by side (data: NIAID ChemDB).

All rows: tests in culture; agent: Human cytomegalovirus; method: plaque count; endpoint: EC50

Neighbouring rows are from separate reports. ECn is the concentration giving n% inhibition of infection, replication or growth.

{"compound": "CCOP(=O)(O)CCC(CO)OCn1cnc2c(=O)[nH]c(N)nc21", "cells": "MRC-5", "strain or isolate": "C8704 (ganciclovir-resistant)", "value": "84 µg/mL"}
{"compound": "Nc1ncnc2c1ncn2C[C@@H](CO)OCP(=O)(O)O", "cells": "HEL", "strain or isolate": "DAVIS", "value": "0.57 µM"}
{"compound": "O[C@@H]1[C@H](O)[C@H](O)CO[C@H]1n1c(Br)nc2cc(Cl)c(Cl)cc21", "cells": "HFF", "strain or isolate": "Coffman", "value": "3.8 µM"}
{"compound": "Nc1nc2c(ncn2C=C2CC2CO)c(=O)[nH]1", "cells": "HFF", "strain or isolate": "AD169", "value": "1.2 µM"}
{"compound": "CCCCCCCCCCCCOCCCOP(=O)(O)CO[C@H](CO)Cn1ccc(N)nc1=O", "cells": "HFF", "strain or isolate": "1117-R", "value": "0.06 µM"}
{"compound": "Nc1ncnc2c1ncn2[C@@H]1C=C(CO)[C@@H](O)[C@H]1O", "cells": "HEL", "strain or isolate": "AD169", "value": "0.53 µg/mL"}
{"compound": "CCCCCCCC/C=C\\CCCCCCCOCCCOP1(=O)CO[C@@H](Cn2ccc(N)nc2=O)CO1", "cells": "HFF", "strain or isolate": "AD169", "value": "0.003 µM"}
{"compound": "CC(=O)N(O)CCCCCNC(=O)CCC(=O)N(O)CCCCCNC(=O)CCC(=O)N(O)CCCCCN", "cells": "HFF", "strain or isolate": "AD169", "value": "4.9 µM"}
{"compound": "OC[C@H]1O[C@@H](n2c(Br)nc3cc(Cl)c(Cl)cc32)[C@H](O)[C@@H]1O", "cells": "HFF", "strain or isolate": "Isolate C4 mutations D344E + Q204R", "value": "28 µM"}
{"compound": "Nc1nc2c(ncn2C[C@]2(CO)C[C@H]2CO)c(=O)[nH]1", "cells": "MRC-5", "strain or isolate": "AD169", "value": "9.2 µg/mL"}
{"compound": "Nc1ccn(C[C@@H](CO)OCP(=O)(O)O)c(=O)n1", "cells": "HEL", "strain or isolate": "AD169", "value": "0.18 µM"}
{"compound": "Nc1nc2c(ncn2COC(CO)CO)c(=O)[nH]1", "strain or isolate": "11 isolates", "value": "44.35 µM"}
{"compound": "CCCCCCCC/C=C\\CCCCCCCCOCCOP(=O)(O)CO[C@H](CO)Cn1ccc(N)nc1=O", "cells": "HFF", "strain or isolate": "C8914-6", "value": "0.07 µM"}
{"compound": "Nc1nc2c(ncn2COC(CO)CO)c(=O)[nH]1", "cells": "MRC-5", "strain or isolate": "C8910", "value": "1.4 µM"}
{"compound": "OC[C@H]1O[C@@H](n2c(Br)nc3cc(Cl)c(Cl)cc32)[C@H](O)[C@@H]1O", "cells": "HFF", "strain or isolate": "CH", "value": "0.4 µM"}
{"compound": "Nc1nccc2c1ncn2C[C@@H](CO)OCP(=O)(O)O", "cells": "HEL", "strain or isolate": "AD169", "value": "0.18 µM"}
{"compound": "O=C1c2cccc([N+](=O)[O-])c2C(=O)N1C1C2CC3CC(C2)CC1C3", "cells": "HEL", "strain or isolate": "DAVIS", "value": ">100 µg/mL"}
{"compound": "CN(C)c1cccc2c(S(=O)(=O)Nc3ccc(NC(=O)C(C)(C)CO)cc3)cccc12", "strain or isolate": "AD169", "value": "0.52 µM"}
{"compound": "Nc1nc2c(ncn2C=C2CC2CO)c(=O)[nH]1", "strain or isolate": "VR3480 (ganciclovir-resistant)", "value": "1.8 µM"}
{"compound": "Nc1nc2c(ncn2COC(CO)CO)c(=O)[nH]1", "cells": "HFF", "strain or isolate": "D10 (BDCRB-resistant)", "value": "2.7 µM"}
{"compound": "O=C1c2ccccc2C(=O)N1C1C2CC3CC(C2)CC1C3", "cells": "HEL", "strain or isolate": "AD169", "value": ">4 µg/mL"}
{"compound": "CC(C)Nc1nc2cc(Cl)c(Cl)cc2n1[C@H]1O[C@@H](CO)[C@H](O)[C@@H]1O", "cells": "MRC-5", "strain or isolate": "C8501", "value": "0.34 µM"}
{"compound": "Nc1ccn(C[C@@H](CO)OCP(=O)(O)O)c(=O)n1", "cells": "HFF", "strain or isolate": "VR4760 (foscarnet-resistant)", "value": "0.3 µM"}
{"compound": "Cn1cc(C(=O)NCc2ccc(Cl)cc2)c(=O)c2cc(/C=C\\CO)cc(F)c21", "cells": "VERO", "strain or isolate": "AD169", "value": "0.5 µM"}
{"compound": "COc1ccccc1CNC(=O)C1=Cc2ccncc2CC1", "cells": "HFF", "strain or isolate": "4760RECPOLA1-1-1", "value": "5.9 µM"}
{"compound": "Nc1ccn(C[C@@H](CO)OCP(=O)(O)O)c(=O)n1", "cells": "HEL", "strain or isolate": "AD169", "value": "0.38 µg/mL"}
{"compound": "O=C(NCc1ccc(Cl)cc1)c1cn(N2CCOCC2)c2ccc(CN3CCOCC3)cc2c1=O", "cells": "HFF", "strain or isolate": "DAVIS", "value": "0.6 µM"}
{"compound": "CN(C)c1cccc2c(S(=O)(=O)Nc3ccc(NC(=O)C(C)(C)CO)cc3)cccc12", "cells": "HFF", "strain or isolate": "TOWNE", "value": "1.3 µM"}
{"compound": "O=C1NC[C@@H]2C34CC5CC(CC(C5)[C@H]3[C@]2(O)c2ccccc21)C4", "cells": "HEL", "strain or isolate": "AD169", "value": ">20 µg/mL"}
{"compound": "Nc1ncnc2c1ncn2C=C1CC1CO", "cells": "HFF", "strain or isolate": "AD169", "value": "1.3 µM"}
{"compound": "CC(C)Oc1ccccc1CNC(=O)c1ccc2cnccc2n1", "cells": "HFF", "strain or isolate": "1117R73-1-2", "value": "0.04 µM"}
{"compound": "Cn1cc(C(=O)NCc2ccc(Cl)cc2)c(=O)c2cc(CN3CCOCC3)ccc21", "cells": "HFF", "strain or isolate": "DAVIS", "value": "0.3 µM"}
{"compound": "CC(=O)Nc1n[nH]c(=O)c2c1ncn2[C@@H]1O[C@H](CO)[C@@H](O)[C@H]1O", "cells": "HFF", "value": ">100 µM"}
{"compound": "O=C1c2ccccc2C(=O)N1CC1C2CC3CC(C2)CC1C3", "cells": "HEL", "strain or isolate": "AD169", "value": ">20 µg/mL"}
{"compound": "Cn1cc(C(=O)NCc2ccc(Cl)cc2)c(=O)c2cc(CN3CCOCC3)ccc21", "cells": "VERO", "strain or isolate": "AD169", "value": "0.94 µM"}
{"compound": "N#CCCC12CC3CC(C1)CC(N1C(=O)c4ccccc4C1=O)(C3)C2", "cells": "HEL", "strain or isolate": "DAVIS", "value": ">100 µg/mL"}
{"compound": "CCCCCCCC/C=C\\CCCCCCCOCCCOP(=O)(O)CO[C@H](CO)Cn1ccc(N)nc1=O", "cells": "HFF", "strain or isolate": "Toledo", "value": "0.005 µM"}
{"compound": "Nc1nc2c(ncn2COC(CO)CO)c(=O)[nH]1", "cells": "HFF", "strain or isolate": "BT1493", "value": "1.1 µM"}
{"compound": "O=C1c2ccccc2[C@]2(O)C3C4C[C@H]5CC(C[C@H]3C5)C4N12", "cells": "HEL", "strain or isolate": "DAVIS", "value": ">100 µg/mL"}
{"compound": "CCCCCCCCCCCCCCCCCCOC[C@H](COP(=O)(O)CO[C@H](CO)Cn1ccc(N)nc1=O)OCc1ccccc1", "cells": "HFF", "strain or isolate": "Coffman", "value": "0.02 µM"}
{"compound": "O=C1c2ccccc2C(=O)N1[C@@H]1CC2CC3CC(C2)C1C3", "cells": "HEL", "strain or isolate": "AD169", "value": ">100 µg/mL"}
{"compound": "O=C(NCCc1ccccc1)C1=Cc2ccncc2CC1", "cells": "HFF", "strain or isolate": "TOWNE", "value": "12.9 µM"}
{"compound": "O=C(NCc1ccc(Cl)cc1)c1c[nH]c2ccc(CCCO)cc2c1=O", "strain or isolate": "NEW", "value": "1.3 µM"}
{"compound": "O=C1c2ccccc2C(=O)N1C1CC2CC3CC(C2)CC1C3", "cells": "HEL", "strain or isolate": "DAVIS", "value": ">100 µg/mL"}

For reference, 4 entries again:

compound,cells,strain or isolate,value
O=C(NCc1ccc(Cl)cc1)c1cn(N2CCOCC2)c2ccc(CN3CCOCC3)cc2c1=O,HFF,DAVIS,0.6 µM
O=C1c2ccccc2C(=O)N1C1CC2CC3CC(C2)CC1C3,HEL,DAVIS,>100 µg/mL
O=C1c2ccccc2C(=O)N1CC1C2CC3CC(C2)CC1C3,HEL,AD169,>20 µg/mL
Nc1ncnc2c1ncn2C[C@@H](CO)OCP(=O)(O)O,HEL,DAVIS,0.57 µM